Measured values taken from patent US8591908B2 (Institute of Immunology, PLA, priority 2002, dated 2013).

Experiment: general procedure: Fmoc solid-phase peptide synthesis; HMP-resin; HOBt/DCC; symmetrical anhydride for first amino acid
Details: whole synthesis; for final HPLC purity: 214 nm

Row | Substance | crude HPLC purity | final HPLC purity (RP-HPLC) [%] | final HPLC purity (gel chromatography) [%]
1 | CH3(CH2)10COKSSPADRE GGGSLNFLGGTTVSSSDPRVRGLYFPA | about 80% | – | –
2 | CH3CH2CH═CHCH2CH═CH(CH2)CH═CH(CH2)7COKSSPADREGGGWLSLLVPFVSSSDPR VRGLYFPARGLYFPA | about 80% | – | –
3 | CH3(CH2)14COKSSQYIKANSKFI GITEAAAFLPSDFFPSVGGGCTKPTDGNCT | about 85% | – | –
4 | CH3(CH2)7CH═CH(CH2)—CO, CH3CH2CH═CHCH2CH═CH(CH2)7CO7KSSQYIKANSKFIGITEGGGDPRVRGLYFPA | about 80% | – | –
5 | CH3(CH2)14COKSSPADREAAA GLSPTVWLSVGGGDPRVRGLYFPA | about 78% | – | –
6 | CH3(CH2)14COKSSQYIKANSK FIGITEAAASIVSPFIPLLGGGDPRVRGLYFPA | about 79% | – | –
7 | CH3(CH2)14COKSSQYIKANSK FIGITEAAAPLGFFPDHGGGDPRVRGLYFPA | about 81% | – | –
8 | CH3(CH2)14COKSSPADREAAA FLPSDFFPSVGGGDPRVRGLYFPA | about 80% | – | –
9 | CH3(CH2)16COKSSPADREAAA FLGGTPVCLGGGDPRVRGLYFPA | about 74% | – | –
10 | CH3(CH2)16COKSSQYIKANSKFI GITEAAAYVNTNMGGGGDPRVRGLYFPA | about 83% | – | –
11 | CH3(CH2)16COKSSQYIKANSKFI GITEAAAFLPSDFFPSVGGGDPRVRGLYFPA | about 80% | – | –
12 | CH3(CH2)16COKSSPADREAAA LLPIFFCLWVGGGDPRVRGLYFPA | about 80% | – | –
13 | CH3(CH2)14COKSSYIKANSK FIGITEAAAMQWNSTALHQALQDPGGGDPRVRGLYFPA | about 86% | – | –
14 | CH3(CH2)14COKSSQYIKAN SKFIGITEGGGFLPSDFFPSVSSSDPRVRGLYFPA | about 80% | – | –
15 | CH3(CH2)14COKSSPDAREAAA ILSKTGDPVGGGDPRVRGLYFPA | about 78% | – | –
16 | CH3(CH2)14COKSSPADRE GGGLLVPFVQWFVSSSDPRVRGLYFPA | about 75% | – | –
17 | CH3(CH2)16COKSSPADREAAA STLPETTVVRRGGGDPRVRGLYFPA | about 82% | – | –
18 | CH3(CH2)16COKSSPADREAAA LLDYQGMLPVGGGDPRVRGLYFPA | about 80% | – | –
19 | CH3(CH2)16COKSSPADRESSS FLLTRILTIGGGDPRVRGLYFPA | about 80% | – | –
20 | K(Palmitoyl)SSQYIKANSKFIGITEAAAFLPSDFFPSVGGGDPRVRGLYFPA-OH | about 80% | 99.9 | 99.8
21 | CH3(CH2)14COKSSQYIKAN SKFIGITEAAAYVNTNMGLKGGGDPRVRGLYFPA | about 81% | – | –
22 | CH3(CH2)14COKSSQYIKA NSKFIGITEAAALLCLIFLLVGGGDPRVRGLYFPA | about 85% | – | –
23 | CH3(CH2)14COKSSQYIKANSKFIG ITEAAAGLSPTVWLSVGGGDPRVRGLYFPA | about 78% | – | –

Ends that are not written are not given here. * marks the point of attachment. Palmitoyl = CCCCCCCCCCCCCCCC(=O)*
